Tests used:
Assay in all cases: ITC
Conditions in all cases: both partners purified
[1] = target: T1, LC3A (residues 1-121 of human LC3A) (human, UniProt Q9H492 1-121)
[2] = target: T2, GABARAPL2 (residues 1-117 of human GABARAPL2) (human, UniProt P60520 1-117)
[3] = target: T3, LC3C (residues 8-125 of human LC3C) (human, UniProt Q9BXW4 8-125)
[4] = target: T4, GABARAP (residues 1-117 of human GABARAP) (human, UniProt O95166 1-117)
[5] = target: T1, LC3A (residues 1-121 of human LC3A); remark: listed apart in the source
[6] = target: T2, GABARAPL2 (residues 1-117 of human …); remark: listed apart in the source
[7] = target: T3, LC3C (residues 8-125 of human LC3C); remark: listed apart in the source
[8] = target: T4, GABARAP (residues 1-117 of human …); remark: listed apart in the source

Sequences of proteins named here, by UniProt entry; tags and fusion partners are left off. Residues count along the entry.
UniProt Q9BXW4, 8-125: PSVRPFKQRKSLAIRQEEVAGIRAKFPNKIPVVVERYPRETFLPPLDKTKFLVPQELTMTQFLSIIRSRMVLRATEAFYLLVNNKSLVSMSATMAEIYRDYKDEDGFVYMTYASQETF

DVEMESEEESDDDGFVEVD [NSs4 (residues 247-265 of RVFV NSs)]
stoichiometry N [1]: 1 | stoichiometry N [2]: 1 | stoichiometry N [3]: 1 | stoichiometry N [4]: 1 | Kd [5]: 240 nM | Kd [6]: 2200 nM | Kd [7]: 200 nM | Kd [8]: 430 nM

From PMC10986958 (PLOS Pathogens, 2024)
